Record: PubChem BioAssay AID1259414 (Drosophila RNAi Screening Center, 2018)

Aim: 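Genome-wide screen for host control of endosymbiont load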 (primary screen)
Cells: Drosophila JW18 cells infected with Wolbachia
Knock-down reagent: long dsRNA against Drosophila genes, 0.25 µg dsRNA per well of a 384-well plate
Time to read-out: 5 days
Treatment: cells persistently infected with Wolbachia before knock-down; no added drug
Measured: 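Automated imaging of bacterial rRNA staining divided by host cell count, reported as plate-normalised robust z-score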
Reading the numbers: Wolbachia per cell robust z: higher = more Wolbachia per host cell than the plate typical
Call rule: 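Active if absolute robust z reaches 1.5 in two or more of three replicates, leaving out multi- or no-target dsRNAs, genes unexpressed in JW18 and A1 wells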
In all, the deposit lists about 24,000 reagents; below is an unselected part of those that have a named target and a result. Of all reagents, about 1,210 (5%) are marked active. 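Inactive calls also include excluded dsRNAs with several or no targets, genes unexpressed in JW18, and well A1, regardless of score.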 Names joined by + are all predicted targets of the reagent. No sequences are given here.

no.	target	dsRNA	Wolbachia per cell robust z, rep 1	Wolbachia per cell robust z, rep 2	Wolbachia per cell robust z, rep 3	activity call
1	Pburs	DRSC02483	-0.789	0.23	-0.284	inactive
2	CG34188	DRSC38869	-0.297	-0.119	-0.235	inactive
3	ND-18	DRSC19441	1.42	0.819	1.39	inactive
4	CG7394	DRSC10835	-0.23	-1.89	-1.23	inactive
5	lms	DRSC06387	0.923	0.644	0.627	inactive
6	lms	DRSC27541	-1.34	0.289	-1.86	inactive
7	Ir8a	DRSC17817	-2.01	0.448	-1.33	inactive
8	Ir8a	DRSC17869	-0.517	-0.409	-0.155	inactive
9	GluRIIE	DRSC13431	0.109	0.0854	-1.98	inactive
10	GluRIIE	DRSC25745	-0.391	1.35	1.2	inactive
11	GluRIIE	DRSC39086	0.466	0.18	0.59	inactive
12	CG34039	DRSC37914	1.23	1.02	1.24	inactive
13	CG10469 + CG10467	DRSC28645	0.637	-1.03	-1.17	inactive
14	Rab4	DRSC07524	-0.251	0.661	1.5	inactive
15	beat-Ib	DRSC03490	0.0435	-0.551	-0.499	inactive
16	Capa	DRSC15058	-1.06	0.685	-0.288	inactive
17	CG8097	DRSC20079	-1.3	-2.69	1.39	inactive
18	CR6900	DRSC20018	-0.775	-0.399	0.187	inactive
19	CG13326	DRSC06363	0.827	0.709	-0.912	inactive
20	polybromo	DRSC14307	0.255	0.396	-0.309	inactive
21	Ncc69	DRSC10412	0.595	-1.8	0.0443	inactive
22	Ncc69	DRSC10413	0.11	-4.28	-1.13	inactive
23	Ncc69	DRSC23572	0.935	0.893	0.0652	inactive
24	CG13992	DRSC02324	0.199	0.131	0.44	inactive
25	gcl	DRSC07623	0.655	0.502	-0.81	inactive
26	gcl	DRSC27995	-1.3	-0.0352	-0.0367	inactive
27	CG12860	DRSC06200	0.0588	0.674	-2.17	inactive
28	CG12860	DRSC26264	0.216	-0.579	0.9	inactive
29	Corin	DRSC06818	0.301	1.29	1.17	inactive
30	Corin	DRSC28927	0.742	-0.419	0.123	inactive
31	CG8840	DRSC00713	-1.31	-0.893	1.77	inactive
32	Klp10A	DRSC19601	0.0836	-5.54	-1.19	inactive
33	Klp10A	DRSC24185	-0.0735	1.79	0.981	inactive
34	CG4942	DRSC10462	0.812	0.711	-1.31	inactive
35	Srlp	DRSC15890	0.81	1.6	-1.04	inactive
36	CG7255	DRSC10790	-0.262	-0.699	0.34	inactive
37	CG31368	DRSC14949	0.806	1.54	0.0619	inactive
38	CG31368	DRSC14951	-2.99	-0.809	-7.81	active
39	CG31601	DRSC03678	1.47	0.622	-1.35	inactive
40	CG8545	DRSC07210	0.244	0.972	-0.415	inactive
41	Cpr47Ee	DRSC23164	-0.21	-0.112	0.403	inactive
42	CG12912	DRSC25772	-1.5	-0.908	0.427	inactive

Continued, starting with the last 3 of the part before.
no.	target	dsRNA	Wolbachia per cell robust z, rep 1	Wolbachia per cell robust z, rep 2	Wolbachia per cell robust z, rep 3	activity call
40	CG8545	DRSC07210	0.244	0.972	-0.415	inactive
41	Cpr47Ee	DRSC23164	-0.21	-0.112	0.403	inactive
42	CG12912	DRSC25772	-1.5	-0.908	0.427	inactive
43	CG13920	DRSC08389	-0.79	0.536	-3.1	inactive
44	CG4229	DRSC10407	0.0667	-0.694	-1.95	inactive
45	Argk1	DRSC09668	-0.146	-6.33	-0.737	inactive
46	Argk1	DRSC10460	0.907	-2.16	1.14	inactive
47	Argk1	DRSC21558	1.14	-0.913	0.706	inactive
48	Argk1	DRSC22665	-0.287	-0.328	0.109	inactive
49	Egfr	DRSC03871	-2.19	-1.17	-1.18	inactive
50	Egfr	DRSC04613	-2.89	-0.468	0.965	inactive
51	Egfr	DRSC40666	0.533	-0.389	-0.169	inactive
52	Cyp310a1	DRSC03301	-0.0527	0.567	-1.8	inactive
53	Cyp310a1	DRSC29160	-1.06	-3.89	0.124	inactive
54	CG11145	DRSC06049	-0.178	-0.705	0.504	inactive
55	NFAT	DRSC18991	0.131	0.234	-0.245	inactive
56	NFAT	DRSC19393	0.379	0.235	0.706	inactive
57	NFAT	DRSC24828	-4.65	-0.038	-0.584	inactive
58	NFAT	DRSC29663	-0.298	-0.0578	0.427	inactive
59	Nadk2	DRSC07072	-0.0509	-0.285	-0.555	inactive
60	Nadk2	DRSC41390	-1.08	0.268	-2.85	inactive
61	Osi23	DRSC15074	-1.5	-0.271	0.00489	inactive
62	CG10492	DRSC24982	0.933	2.05	-7.63	inactive
63	Ir94h	DRSC15232	0.224	0.474	0.29	inactive
64	CG44005 + CG44004	DRSC36534	-2.93	0.162	0.488	inactive
65	CG15864	DRSC15122	-4.81	0.507	0.513	inactive
66	CG15864	DRSC25659	0.256	1.84	0.755	inactive
67	Sgsh	DRSC14771	0.633	0.644	-0.432	inactive
68	alpha-Man-Ic	DRSC21674	-0.758	0.912	0.939	inactive
69	alpha-Man-Ic	DRSC27509	1.81	0.625	0.409	inactive
